Only a part is listed here, and it is no random draw. Activity calls are given as the source filed them. Calls come from the whole dose curve; as a rule, active = well fitted inhibition curve with a large enough effect; inconclusive = small, poorly fitted or top-dose-only effect; inactive = flat fitted curve, though single readings scatter.
Test: qHTS for Inhibitors of Vif-A3F Interactions: qHTS; note: % of control where 0% means no effect; nearly all actives have a fitted effect of over 65% in size
Conditions: HeLa A3F-eYFP + Vif (tagged APOBEC3F with the HIV-1 protein that degrades it), YFP fluorescence increase; at 46.1 µM (top of the series)
Text: The recent discovery and characterization of host restriction factors, which provide a potent defense to invading retroviruses, has provided new targets for antiviral drug development. APOBEC3G (A3G) and APOBEC3F (A3F) are potent cytidine deaminases that block HIV-1 replication; HIV-1 expresses the Vif protein, which counteracts A3G and A3F by binding to them and inducing their proteasomal degradation. The Vif-A3G and Vif-A3F interactions provide two potential targets for development of small molecules which can interfere with the ability of Vif to degrade A3G or A3F. […] To identify inhibitors that can interfere with Vif mediated degradation of A3G and A3F, we have developed Hela cell lines that stably express A3G or A3F tagged with eYFP at the C-terminal end (A3G-eYFP or A3F-eYFP, respectively) and Vif. In the absence of an inhibitor, Vif induces degradation of A3G-eYFP and A3F-eYFP, and the cells are not fluorescent. In the presence of an inhibitor, it is expected that Vif will be unable to degrade A3G-eYFP and/or A3F-eYFP, resulting in an increase in yellow fluorescence. In this assays Vif A3F was screened against the Molecular Library Small Molecule Repository (MLSMR). NIH Chemical Genomics Center [NCGC] NIH Molecular Libraries Probe Centers Network [MLPCN] MLPCN Grant: MH093245 Assay Submitter (PI): Vinay Pathak, National Cancer Institute
5 uL of 700 cells/well of A3F-YFP cells are dispensed into black, clear bottom plates. The plates are incubated overnight at 37 deg C. 23 nL of compounds are added by pintool. The plates are incubated overnight at 37 deg C and then read on the TTP Acumen (Ex 488/ Em 500-530).

Compound	activity, negative = active
CCc1ccc(OP(C)(=O)O)cc1	inactive: 4.45%
COc1ccccc1OP(C)(=O)Nc1ccc(C)cc1C (stereo not drawn)	inactive: 5.32%
CP(=O)(Nc1ccccn1)Oc1ccccc1 (stereo not drawn)	inactive: 2.62%
Cc1c(NP(C)(=O)Oc2ccc(C(C)C)cc2)c(=O)n(-c2ccccc2)n1C (stereo not drawn)	inactive: 2.7%
O=[N+]([O-])c1cc([N+](=O)[O-])c(Nc2ccccn2)c([N+](=O)[O-])c1	inactive: 0.217%
CN(C)CCOC(=O)C(O)(c1ccccc1)C1CCCC1 (stereo not drawn)	inactive: 4.82%
COc1ccc(OP(C)(=O)Nc2ccccn2)cc1 (stereo not drawn)	inactive: -7.66%
COc1ccccc1OP(C)(=O)Nc1ccc(Br)cc1 (stereo not drawn)	inactive: 4.64%
CP(=O)(Nc1ccc(Cl)cc1Cl)Oc1ccccc1 (stereo not drawn)	inactive: 8.47%
CCCCCCCCCCCCCCCC1C[N+](C)(C)CCOP(C)(=O)O1 (stereo not drawn)	inactive: -0.798%
CP(=O)(OCCOc1ccccc1)OCCOc1ccccc1	inactive: 0.847%
COc1ccc(OP(C)(=O)Nc2ccccc2Br)cc1 (stereo not drawn)	inactive: 0.806%
COc1ccccc1OP(C)(=O)Nc1ccc(C)c(C)c1 (stereo not drawn)	inactive: 2.08%
Cc1cc(C)cc(OP(C)(=O)Nc2cccc(C(F)(F)F)c2)c1 (stereo not drawn)	inactive: 3.75%
CP(=O)(OC12CC3CC(CC(C3)C1)C2)OC12CC3CC(CC(C3)C1)C2	inactive: 1.2%
CCOC(=O)c1ccc(NP(C)(=O)Oc2ccc(Cl)cc2)cc1 (stereo not drawn)	inactive: -0.619%
Nc1ccc2c(ccc3cccnc32)n1.O=[N+]([O-])c1cc([N+](=O)[O-])c(O)c([N+](=O)[O-])c1	inactive: -2.04%
CN(C)C(=O)c1c([N+](=O)[O-])cc([N+](=O)[O-])cc1[N+](=O)[O-]	inactive: 4.86%
CP(=O)(Nc1ccc(Cl)cc1)Oc1ccc(F)cc1 (stereo not drawn)	inactive: -7.5%
COc1ccccc1OP(C)(=O)Nc1ccccc1Br (stereo not drawn)	inactive: -4.35%

Compound	activity, negative = active
CC(C)(C)c1ccc(OP(C)(=O)O)cc1	inactive: 0.725%
CCc1ccc(OP(C)(=O)Nc2cccnc2)cc1 (stereo not drawn)	inactive: 1.66%
CP(=O)(Oc1ccccc1)N1CCOC1=O (stereo not drawn)	inactive: 0.0195%
O=C(OCCCN1CCCC1)C(O)(c1ccccc1)C1CCCCC1 (stereo not drawn)	inactive: -3.04%
COc1ccccc1OP(C)(=O)Nc1c(C)n(C)n(-c2ccccc2)c1=O (stereo not drawn)	inactive: -0.669%
COc1ccc(OP(C)(=O)Nc2ccc(Br)cc2)cc1 (stereo not drawn)	inactive: -0.158%
CCN(CC)CC(O)COC(=O)C(O)(c1ccccc1)C1CCCCC1 (stereo not drawn)	inactive: 2.15%
Cc1ccccc1NP(C)(=O)Nc1ccccc1C	inactive: 5.9%
CP(=O)(Nc1ccc2c(c1)OCCO2)Oc1ccccc1 (stereo not drawn)	inactive: 1.72%
CCOP(C)(=S)SCC(=O)NC(C)(CC)C(=O)O (stereo not drawn)	inactive: 7.35%
CP(=O)(Nc1ccc(SC(F)(F)F)cc1)Oc1ccc(F)cc1 (stereo not drawn)	inactive: 1.85%
Cc1c(C(c2ccc3c(c2)OCO3)c2c(C)n(C)n(-c3ccccc3)c2=O)c(=O)n(-c2ccccc2)n1C.O=[N+]([O-])c1cc([N+](=O)[O-])c(O)c([N+](=O)[O-])c1	inactive: 1.08%
Cc1cc(-c2cccc3ccccc23)c(C)cn1.O=[N+]([O-])c1cc([N+](=O)[O-])c(O)c([N+](=O)[O-])c1	inactive: -9.16%
O=[N+]([O-])c1ccc(OP2(=O)COCCO2)cc1 (stereo not drawn)	inactive: -2.98%
COc1ccc(NP(C)(=O)Oc2ccccc2OC)cc1 (stereo not drawn)	inactive: -0.777%
CN(C)CCOC(=O)C(O)(c1ccccc1)C1CCCCC1 (stereo not drawn)	inactive: -2.71%
COc1ccc(OP(C)(=O)Nc2cccc(Br)c2)cc1 (stereo not drawn)	inactive: -1.2%
CCCCCOc1ccc(NP(C)(=O)Oc2ccc(Cl)cc2Cl)cc1 (stereo not drawn)	inactive: -0.985%
CP(=O)(Nc1ccccc1)Oc1ccc(F)cc1 (stereo not drawn)	inactive: 2.75%
CCN(CC)CCCOC(=O)C(O)(c1ccccc1)C1CCCCC1 (stereo not drawn)	inactive: 4.81%

Compound	activity, negative = active
Cc1c([N+](=O)[O-])cc([N+](=O)[O-])c(Br)c1[N+](=O)[O-]	inactive: 2.71%
COc1ccc(OP(C)(=O)Nc2ccc(SC(F)(F)F)cc2)cc1 (stereo not drawn)	inactive: -7.71%
CCOC(=O)c1ccc(NP(C)(=O)Oc2ccc(F)cc2)cc1 (stereo not drawn)	inactive: -1.17%
O=C(OCCN1CCN(CCOCc2ccccc2)CC1)C(O)(c1ccccc1)c1ccccc1	inactive: 3.58%
CC(C)c1ccc(OP(C)(=O)Nc2ccc(SC(F)(F)F)cc2)cc1 (stereo not drawn)	inactive: -12.9%
CP(=O)(Nc1ccccc1F)Oc1ccccc1 (stereo not drawn)	inactive: -9.21%
Cc1cc(C)cc(OP(C)(=O)Nc2ccccn2)c1 (stereo not drawn)	inactive: -0.836%
CP(=O)(Nc1cccc(Br)c1)Oc1ccccc1 (stereo not drawn)	inactive: 0.236%
Cc1ccc(C)c(NP(C)(=O)Oc2ccccc2)c1 (stereo not drawn)	inactive: -9.31%
Cc1cc(C)cc(OP(C)(=O)Nc2ccc(C)cc2C)c1 (stereo not drawn)	inactive: -2.36%
CCOC(=O)c1ccc(NP(C)(=O)Oc2cc(C)cc(C)c2)cc1 (stereo not drawn)	inactive: -7.65%
COc1ccccc1OP(C)(=O)Nc1cccc(Br)c1 (stereo not drawn)	inactive: 0.322%
CC1=NCCc2c1[nH]c1ccccc21.O=[N+]([O-])c1cc([N+](=O)[O-])c(O)c([N+](=O)[O-])c1	inactive: -19.2%
CCCOc1ccc(NP(C)(=O)Oc2ccc(Cl)cc2)cc1 (stereo not drawn)	inactive: -17%
CP(=O)(Nc1ccc(SC(F)(F)F)cc1)Oc1ccccc1 (stereo not drawn)	inactive: -10.3%
COc1ccccc1OP(C)(=O)Nc1c(C)cccc1C (stereo not drawn)	inactive: -2.24%
CN1CCCCC1COC(=O)C1(O)c2ccccc2CCc2ccccc21 (stereo not drawn)	inactive: 1.87%
CC1=C2N=C(C=C3N=C(C(C)=C4[N-][C@@](C)([C@@H]5N=C1[C@](C)(CCC(=O)NC[C@@H](C)OP(=O)([O-])O[C@H]1[C@@H](O)[C@@H](n6cnc7cc(C)c(C)cc76)O[C@@H]1CO)[C@H]5CC(N)=O)[C@@](C)(CC(N)=O)[C@@H]4CCC(N)=O)[C@@](C)(CC(N)=O)[C@@H]3CCC(N)=O)C(C)(C)[C@@H]2CCC(N)=O.[C-]#N.[Co+3]	inactive: -1.37%

— PubChem BioAssay AID602313 (National Center for Advancing Translational Sciences (NCATS), 2012)
